Compound potency records, mixed from different reports. Data source: NIAID ChemDB in PubChem.

All rows: whole-cell or culture tests; organism: HIV-1

a–b is a range or a potency band.

| smiles | strain | cell line | measure | mutations | setting | read by | result |
|---|---|---|---|---|---|---|---|
| CC(C)(O)c1cccc(CN2C(=O)N(Cc3cccc(C(C)(C)O)c3)[C@H](Cc3ccccc3)[C@H](O)[C@@H](O)[C@H]2Cc2ccccc2)c1 | HXB2 | MT-2/MT-4 + MT-2 | EC50 | PR-V82F/184V |  | p24 | <5.78 µM |
| CCN1c2ncc(CCOc3ccc(C(=O)O)c4ccccc34)cc2C(=O)Nc2c(C)cc(Cl)nc21 | WT | C8166 | EC50 |  |  | p24 | <0.1 µM |
| COc1ccccc1-n1c(-n2[nH]c(=O)c3ccccc3c2=O)nc2ccccc2c1=O | IIIB | MT-4 | EC50 |  |  | visual reading | 100 µM |
| CC(C)(C)NC(=O)[C@@H]1C[C@@H]2CCCC[C@@H]2CN1C[C@@H](O)[C@H](Cc1ccccc1)NC(=O)O[C@@H]1CO[C@@H]2OCC[C@@H]21 | IIIB | MT-4 | EC50 |  |  | antigen | <0.2 µM |
| CC(=O)SCCOP(=O)(OCCSC(C)=O)OC[C@@H]1CC[C@H](n2ccc(N)nc2=O)O1 | IIIRF | MOLT-4/8 + MOLT-4 | EC50 |  |  | p24 | 0.16 µM |
| CCc1c(Sc2ccccc2)n(COCCO)c(=O)[nH]c1=O |  | MT-4 | EC50 |  |  | cytopathic effect | 0.12 µM |
| Nc1nc(Cl)nc2c1ncn2[C@H]1CC[C@@H](CO)O1 | IIIB | MT-2 | EC50 |  |  | cytopathic effect / trypan blue | >2 µM |
| CC(C)(C)[C@H](NC(=O)OCc1nc2ccccc2[nH]1)C(=O)N[C@@H](Cc1ccccc1)[C@H](O)[C@@H](CO)[C@H](Cc1ccccc1)NC(=O)[C@@H](NC(=O)OCc1nc2ccccc2[nH]1)C(C)(C)C | IIIB | MT-4 | EC50 |  |  |  | 4.7 µM |
| C1CNCCNCC(CCOCCOCCC2CNCCNCCCNCCNC2)CNCCNC1 | IIIB | MOLT-4 | EC50 |  |  | syncytia | 58.3 µM |
| Nc1ncnc2c1ncn2[C@]1(c2ccccc2)C[C@@H]1CO |  | MT-4 | EC50 |  |  | cytopathic effect | >100 µM |
| CC(C)(C)C(=O)SCCCCOP(=O)(OCCCCSC(=O)C(C)(C)C)OC[C@@H]1CC[C@H](n2cnc3c(N)ncnc32)O1 | LAI | CEM + CEM TK- | EC50 |  |  | RT activity | >10 µM |
| CC(C)[C@H](NC(=O)OCc1ccccc1)C(=O)N[C@@H](Cc1ccccc1)[C@H](O)[C@@H](CO)[C@H](Cc1ccccc1)NC(=O)[C@H](CC(C)(C)C)NC(=O)OCc1ccccc1 | IIIB | MT-4 | EC50 |  |  |  | >10 µM |
| Nc1ncnc2c1ncn2C[C@@H](CO)OCP(=O)(O)O | BaL | Macrophage + Monocytes/macrophages | EC50 |  |  |  | 3.2 µM |
| O=c1[nH]cnc2c1ncn2[C@H]1CC[C@@H](CO)O1 | RTMN (RT-M41L T215Y) | HT4 + HT4 LacZ-1 | EC50 | RT-M41L T215Y |  | plaque count | 3.02 µM |
| Cc1c(SC2CCCCC2)n(COCCO)c(=O)[nH]c1=O |  | MT-4 | EC50 |  |  | cytopathic effect | 7.7 µM |
| OCC1(F)OC(n2cnc3c(N(Cc4ccccc4)Cc4ccccc4)ncnc32)CC1OCc1ccccc1 |  |  | EC50 |  |  |  | 4 µM |
| CCN1c2ncc(CCOc3ccc(C(=O)O)c4ccccc34)cc2C(=O)N(C)c2cccnc21 | WT | C8166 | EC50 |  |  | p24 | <0.1 µM |
| Cc1ccnc2c1NC(=O)c1cccnc1N2C1CC1 | WEJO | PBMC | EC50 |  |  | cytopathic effect / XTT | 0.06 µM |
| Nc1ncnc2c1ncn2CCOCP(=O)(O)O | BaL | Macrophage + Monocytes/macrophages | EC50 |  |  |  | 0.022 µM |
| Fc1ccccc1CCNC(=S)Nc1ccc(Br)cn1 | IIIB | PBMC | EC50 |  |  | RT activity | <0.001 µM |
| Cc1c(Sc2ccccc2)n(COCCO)c(=S)[nH]c1=O |  | MT-4 | EC50 |  |  | cytopathic effect | 1.6 µM |
| CCN1c2ncc(CCOc3cccc4c3CCCN4CC(=O)O)cc2C(=O)N(C)c2cccnc21 | WT | C8166 | EC50 |  |  | p24 | 0.1–1 µM |
| CC(C)(C)C(=O)SCCOP(=O)(OCCSC(=O)C(C)(C)C)OC[C@@H]1CC[C@H](n2cnc3c(N)ncnc32)O1 | LAI | CEM + CEM TK- | EC50 |  |  | RT activity | 0.0011 µM |
| CC(=O)c1ccc(C)cc1NC(C(N)=O)c1c(Cl)cccc1Cl | IIIB | MT-4 | EC50 |  |  | MTT | 0.006 µM |
| O=C1N(CC2CCC2)[C@H](Cc2ccccc2)[C@H](O)[C@@H](O)[C@@H](Cc2ccccc2)N1CC1CCC1 | RF | MT-2 | EC50 |  |  | hybridisation | <1 µM |
| CC(C)(C)[C@H](NC(=O)OCCc1nc2ccccc2[nH]1)C(=O)N[C@@H](Cc1ccccc1)[C@H](O)[C@@H](CO)[C@H](Cc1ccccc1)NC(=O)[C@@H](NC(=O)OCCc1nc2ccccc2[nH]1)C(C)(C)C | IIIB | MT-4 | EC50 |  |  |  | >10 µM |
| O=c1[nH]cnc2c1ncn2[C@H]1CC[C@@H](CO)O1 | XM-M184V | MT-4 | EC50 | RT-M184V |  | p24 | <6.4 µM |
| CCCCN1C(=O)N(Cc2ccc3ccccc3c2)[C@H](Cc2ccccc2)[C@H](O)[C@@H](O)[C@H]1Cc1ccccc1 | RF | MT-2 | EC50 |  |  | hybridisation | <0.75 µM |
| C/C=C/CSc1cc(NC(=S)c2ccsc2C)ccc1Cl | IIIB | MT-2 | EC50 |  |  | cytopathic effect / XTT | 0.07 µM |
| Cc1cn([C@H]2C[C@H](N=[N+]=[N-])[C@@H](CO)O2)c(=O)[nH]c1=O | IIIB | MT-2 | EC50 |  |  | cytopathic effect / trypan blue | <2 µM |
| Cc1cn([C@]2(c3ccccc3)C[C@@H]2CO)c(=O)[nH]c1=O |  | MT-4 | EC50 |  |  | cytopathic effect | 80.2 µM |
| O=C1CCC(c2ccccc2)C(=O)N1CCCN1CCN(c2ccccc2O)CC1 |  | MT-4 | EC50 |  |  | MTT | >100 µM |
| Cc1cn([C@H]2C[C@H](F)[C@@H](CP(=O)(O)O)O2)c(=S)[nH]c1=O |  | PBMC | EC50 |  |  | syncytia | 0.5 µM |
| CCCN1C(=O)N(Cc2ccc3ccccc3c2)[C@H](Cc2ccccc2)[C@H](O)[C@@H](O)[C@H]1Cc1ccccc1 | RF | MT-2 | EC50 |  |  | hybridisation | <3.3 µM |
| CN1N=C(N)c2cn([C@@H]3O[C@H](COP(=O)(O)O)[C@@H](O)[C@H]3O)c3ncnc1c23 | KELL 40 | CEM + CEM-SS | EC50 |  |  | XTT | >2.8 µM |
| CC(C)(C)[C@H](NC(=O)OCc1ccccc1)C(=O)N[C@@H](Cc1ccccc1)[C@@H](O)[C@H](CO)[C@H](Cc1ccccc1)NC(=O)[C@@H](NC(=O)OCc1ccccc1)C(C)(C)C | IIIB | MT-4 | EC50 |  |  |  | 1.65 µM |
| c1cnc2c(c1)cc(CN1CCCNCCNCCCNCC1)c1cccnc12 | IIIB | MT-4 | EC50 |  | 6 d | cytopathic effect / MTT | 1.59 µM |
| O=c1[nH]cnc2c1ncn2[C@H]1CC[C@@H](CO)O1 | IIIRF | MOLT-4/8 + MOLT-4 | EC50 |  |  | p24 | 13.8 µM |
| CC(C)OP(=O)(COC[C@H]1C[C@@]1(c1ccccc1)n1ccc(=O)[nH]c1=O)OC(C)C |  | MT-4 | EC50 |  |  | cytopathic effect | 50.7 µM |
| O=c1cc(-c2ccc(O)cc2)oc2cc(O[C@@H]3O[C@H](CO)[C@@H](O)[C@H](O)[C@H]3O)cc(O)c12 | IIIB | H9 | EC50 |  |  | p24 | 1.8 µg/mL |
| Cc1cn([C@H]2C[C@H](N=[N+]=[N-])[C@@H](CO)O2)c(=O)[nH]c1=O | LAV | U1(HIV-1 (LAV)) + U1 | EC50 |  |  | RT activity | >1 µg/mL |
| Cc1cn([C@H]2C[C@H](N=[N+]=[N-])[C@@H](COP(=O)(OCCSC(=O)C(C)(C)C)OCCSC(=O)C(C)(C)C)O2)c(=O)[nH]c1=O | IIIRF | MOLT-4/8 + MOLT-4 | EC50 |  |  | p24 | 0.6 µM |
| O=C1N(Cc2ccccc2)[C@H](Cc2ccccc2)[C@H](O)[C@@H](O)[C@@H](Cc2ccccc2)N1Cc1ccccc1 | RF | MT-2 | EC50 |  |  | hybridisation | <0.83 µM |
| C1CNCCNCCCNCCNC1 | RF | MOLT-4 | EC50 |  |  | syncytia | >2500 µM |
| O=c1[nH]cnc2c1ncn2[C@H]1CC[C@@H](CO)O1 | HXB2D (RT-M184V) | CBMC | EC50 | RT-M184V |  | p24 | 15.5 ± 1.9 µM |
| CC(=O)N(O)CCCCCNC(=O)CCC(=O)N(O)CCCCCNC(=O)CCC(=O)N(O)CCCCCN | BaL | Macrophage + Monocytes/macrophages | EC50 |  |  | XTT / p24 | ~100 µM |
| Cc1cn([C@H]2C[C@H](N=[N+]=[N-])[C@@H](CO)O2)c(=O)[nH]c1=O | LAI | CEM + CEM-SS | EC50 |  |  | RT activity | 0.0012 µM |
| O=c1cc(-c2ccc(O)cc2)oc2cc(O)cc(O)c12 | IIIB | H9 | EC50 |  |  | p24 | 9 µg/mL |
| O=C1N(Cc2ccc3ccccc3c2)[C@H](Cc2ccccc2)[C@H](O)[C@@H](O)[C@@H](Cc2ccccc2)N1Cc1ccc2ccccc2c1 | RF | MT-2 | EC50 |  |  | hybridisation | <3.9 µM |
| Cc1cn([C@H]2C[C@H](F)[C@@H](CO)O2)c(=S)[nH]c1=O |  | CEM | EC50 |  |  | syncytia | 0.5 µM |
| Cc1occc1C(=S)Nc1ccc(Cl)c(/C=N/OC(C)(C)C)c1 | Isolate NL4-3 | CEM + CEM-SS | EC50 |  |  | cytopathic effect / XTT | 0.08 µM |
| NC1=CS(=O)(=O)OC12C1CC3CC(C1)CC2C3 |  |  | EC50 |  |  |  | >200 µg/mL |
| COc1c(C)c2c(c(O)c1C/C=C(\C)CCC(=O)O)C(=O)OC2 | NL4-3 | PBMC | EC50 |  |  | p24 | ~10 µM |
| C=CCO |  | CEM | EC50 |  |  | syncytia | 10 µM |
| O=C1CCC(c2ccccc2)C(=O)N1CCCCN1CCN(c2ccccc2O)CC1 |  | MT-4 | EC50 |  |  | MTT | >100 µM |
| CC1(C)O[C@H]2[C@H](n3cnc4c(N(C(=O)c5ccccc5)C(=O)c5ccccc5)ncnc43)O[C@](F)(CI)[C@H]2O1 |  |  | EC50 |  |  |  | <10 µM |
| COc1ccc(-n2c(-n3[nH]c(=O)c4ccccc4c3=O)nc3ccccc3c2=O)cc1 | IIIB | MT-4 | EC50 |  |  | visual reading | 100 µM |
| CC(C)[C@H](NC(=O)OCc1ccccc1)C(=O)N[C@@H](Cc1ccccc1)[C@H](O)[C@@H](CO)[C@H](Cc1ccccc1)NC(=O)[C@@H](NC(=O)OCc1ccccc1)C(C)C | IIIB | MT-4 | EC50 |  |  |  | >10 µM |
| Cc1cn([C@H]2C[C@H](N=[N+]=[N-])[C@@H](CO)O2)c(=O)[nH]c1=O | NL-XM WT | PBMC | EC90 |  |  | p24 | 0.12 µM |
| Cc1ccnc2c1NC(=O)c1cccnc1N2C1CC1 | CLADE E | PBMC | EC50 |  | clinical isolate | cytopathic effect / XTT | 0.007 µM |
| CC(C)(C)[C@H](N)C(=O)N[C@@H](Cc1ccccc1)[C@H](O)[C@@H](CO)[C@H](Cc1ccccc1)NC(=O)[C@@H](N)C(C)(C)C | IIIB | MT-4 | EC50 |  |  |  | >10 µM |
| COc1ccccc1N1CCN(CCCN2C(=O)CCC(c3ccccc3)C2=O)CC1 |  | MT-4 | EC50 |  |  | MTT | >100 µM |
| Nc1ccn([C@H]2CC[C@@H](CO)O2)c(=O)n1 | RTMN (RT-M41L T215Y) | HT4 + HT4 LacZ-1 | EC50 | RT-M41L T215Y |  | plaque count | 0.71 µM |
| CC(C)[C@H](NC(=O)N(C)Cc1ccccn1)C(=O)N[C@@H](Cc1ccccc1)[C@H](O)[C@@H](O)[C@H](Cc1ccccc1)NC(=O)[C@@H](NC(=O)N(C)Cc1ccccn1)C(C)C | IIIB | MT-4 | EC50 |  |  | cytopathic effect / MTT | 0.17 µM |
| Nc1ccn([C@]2(c3ccccc3)C[C@@H]2COCP(=O)(O)O)c(=O)n1 |  | MT-4 | EC50 |  |  | cytopathic effect | 48.2 µM |
| S=C(NCCC1=CCCCC1)Nc1ccc(Br)cn1 | IIIB | PBMC | EC50 |  |  | RT activity | 0.003 µM |
| OC[C@@H]1CC[C@H](n2cnc3c(Br)ncnc32)O1 | IIIB | ATH8 | EC50 |  |  | cytopathic effect / trypan blue | <20 µM |
| CC(C)[C@H](NC(=O)N(C)Cc1ccccn1)C(=O)N[C@@H](Cc1ccccc1)C[C@H](O)[C@H](Cc1ccccc1)NC(=O)[C@@H](NC(=O)N(C)Cc1ccccn1)C(C)C |  | MT-4 | EC50 |  |  | cytopathic effect / MTT | 0.16 µM |
| Cc1cn([C@H]2C[C@H](F)[C@@H](COP(=O)(O)O)O2)c(=S)[nH]c1=O |  | PBMC | EC50 |  |  | syncytia | 0.5 µM |
| CCN1c2ncc(CCOc3ccc(C(=O)O)c4c3CCCC4)cc2C(=O)N(C)c2cccnc21 | WT | C8166 | EC50 |  |  | p24 | <0.1 µM |
| COC1=C2[C@@H]3Cc4ccc(OC)c(O)c4[C@]2(CCN3)CC(OC(C)=O)C1OC(C)=O | IIIB | MT-4 | EC50 |  |  | cytopathic effect / visual reading | <7.8 µg/mL |
| Nc1nc(Br)c2ncn([C@H]3CC[C@@H](CO)O3)c2n1 | IIIB | ATH8 | EC50 |  |  | cytopathic effect / trypan blue | <20 µM |
| Cc1ccc(-n2c(-n3[nH]c(=O)c4ccccc4c3=O)nc3ccccc3c2=O)cc1 | IIIB | MT-4 | EC50 |  |  | visual reading | 100 µM |
| CC(C)[C@H](NC(=O)OCc1ccccc1)C(=O)N[C@@H](Cc1ccccc1)[C@H](O)[C@@H](CO)[C@H](Cc1ccccc1)NC(=O)[C@H](CC(N)=O)NC(=O)OCc1ccccc1 | IIIB | MT-4 | EC50 |  |  |  | >10 µM |
| C=CCOC(=O)CCC |  | CEM | EC50 |  |  | syncytia | 45 µM |
| CCN1c2ncc(CCOc3ccc(C(=O)O)c4ccccc34)cc2C(=O)N(C)c2ccc(Cl)nc21 |  | C8166 | EC50 | RT-K103N Y181C |  | p24 | <0.1 µM |
| CC(C)(C)NC(=O)[C@@H]1C[C@@H]2CCCC[C@@H]2CN1C[C@@H](O)[C@H](Cc1ccccc1)NC(=O)[C@H](CC(N)=O)NC(=O)c1ccc2ccccc2n1 | NL4-3.C7 (PR L10F M46I I84V) | MT-4 | EC50 | PR-L10F M46I I84V |  | p24 | 0.006 µM |

ECn is the concentration giving n% inhibition of infection, replication or growth. An empty or dashed field is not shown. Conditions beyond the fields shown may differ between rows.